According to ChEMBL document CHEMBL1128289, “Reductive chemistry of the novel hypoxia-selective cytotoxin 5-[N,N-bis(2-chloroethyl)amino]-2,4-dinitrobenzamide” (J Med Chem, 1995):

These compounds were tested on UV4 (assay: Cytotoxicity in a growth inhibition assay against aerobic cultures of UV4 cells was determined).
Compound `NC(=O)c1cc(N(CCCl)CCCl)c(N)cc1[N+](=O)[O-]` has an IC50 of 12 µM. For `NC(=O)c1cc(N(CCCl)CCCl)c([N+](=O)[O-])cc1N`, the IC50 was 0.22 µM. Work on `NC(=O)c1cc(N(CCCl)CCCl)c(N)cc1N` yielded an IC50 of 0.029 µM.
